The values below come from PubChem BioAssay AID624268 (The Scripps Research Institute Molecular Screening Center, 2012).

Each structure is given as a SMILES string. This is a selection; strong and weak results do not stand in their true shares. Activity calls are given as the source filed them.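 The calls were made as follows: active = inhibition above a per-plate cutoff of the control wells' mean inhibition plus 3 SD (cut at about 5.5% in these data); inactive = the rest.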

This assay relates to methionyl-tRNA synthetase (Trypanosoma brucei brucei). The assay can be described thus: T. brucei MetRS inhibitors, primary screen, biochemical, luminescence (AID 624268).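 Also: 0% = DMSO wells median and 100% = median of wells with control inhibitor compound.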 The conditions noted are these: purified T. brucei MetRS, ATP depletion, Kinase-Glo luminescence; at 11.9 µM; stronger effect = higher value. The method in brief: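 Assay system: T. brucei methionyl-tRNA synthetase, purified | Medium: HEPES buffer with MgCl2, KCl, DTT, spermine, BSA, pyrophosphatase | Compound: 11.9 µM single point | Incubation: 15 min enzyme-compound preincubation, 2 h reaction, 10 min detection, 25 °C | Measured by: Kinase-Glo luciferase luminescence reporting remaining unconsumed ATP | Measure: % inhibition normalized to control-well medians | Replication: Singlicate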
(In Kinase-Glo more light means more ATP remaining.)
For `CCN1CCC(Nc2cccc(F)c2)CC1`, the inhibition is inactive: -0.41%. The value for `COc1ccc(C(c2nnnn2C2CCCCC2)N2CCC(n3c(=O)[nH]c4ccccc43)CC2)cc1` (stereo not drawn) was inactive: 0.56%; that for `CC(C)(C)n1nnnc1C(c1ccnc2ccccc12)N1CCC(n2c(=O)[nH]c3ccccc32)CC1` (stereo not drawn) was inactive: -1.21%; that for `Cc1ccccc1NC1(C#N)CCN(Cc2ccccc2)CC1` was inactive: -0.19%.

On to `CN(C)c1ccc(C(=O)NCC2(N3CCCCC3)CCCCC2)cc1`, for which the inhibition was inactive: -0.64%. Under `Cn1c(=O)[nH]cc(N(CCCl)CCCl)c1=O` stands inactive: 0.16%; under `O=C(NCC1(N2CCCCC2)CCCCC1)c1ccco1`, inactive: 0.22%; under `COc1cc(OC)cc(C(=O)NCC2(N3CCCCC3)CCCCC2)c1`, inactive: -0.5%. The value for `O=c1[nH]c2ccccc2n1C1CCN(C(c2ccnc3ccccc23)c2nnnn2C2CCCCC2)CC1` (stereo not drawn) was inactive: -0.16%; that for `CCC(c1nnnn1C1CCCCC1)N1CCC(n2c(=O)[nH]c3ccccc32)CC1` (stereo not drawn) was inactive: -0.93%; that for `COc1cccc(C(c2nnnn2C2CCCCC2)N2CCC(n3c(=O)[nH]c4ccccc43)CC2)c1OC` (stereo not drawn) was inactive: 0.04%. The value for `CC(=O)N(c1ccccc1)C1CCNCC1` was inactive: -0.05%. In the case of `Cc1ccc(NC2(C#N)CCN(Cc3ccccc3)CC2)cc1`, the inhibition is inactive: -0.14%. In the case of `Fc1ccccc1NC1CCN(Cc2ccccc2)CC1`, the inhibition is inactive: 0.04%.

As to `Cc1ccc(C(=O)NCC2(N3CCCCC3)CCCCC2)o1`, the inhibition was inactive: -0.19%. Under `CCC(CO)(C(=O)OC1CN2CCC1CC2)c1ccccc1` (stereo not drawn) stands inactive: -1.52%; under `COc1cc(OC)cc(C(=O)NCC2(N3CCOCC3)CCCCC2)c1`, inactive: -0.84%; under `COc1cccc(C(c2nnnn2C2CCCC2)N2CCC(n3c(=O)[nH]c4ccccc43)CC2)c1OC` (stereo not drawn), inactive: -0.34%.

As for `COc1cccc(C(=O)N(c2cc(C)cc(C)c2)C2CCN(C(=O)OC(C)(C)C)CC2)c1`, the inhibition is inactive: -0.56%. Under `CN1CCC(Nc2ccc(Cl)cc2)CC1` stands inactive: -1.8%. Regarding `CN1CCC(Nc2ccc(F)c(Cl)c2)CC1`, the inhibition is inactive: -0.4%. The value for `CCOc1ncccc1C(=O)NCC1(N2CCOCC2)CCCCC1` was inactive: -0.53%; that for `O=c1[nH]c2ccccc2n1C1CCN(C(c2cc3ccccc3o2)c2nnnn2C2CCCC2)CC1` (stereo not drawn) was inactive: -0.5%; that for `CCCOc1ccc(C(=O)NCC2(N(C)C)CCCCC2)cc1` was inactive: 0.43%. Under `O=C(O)C1(Nc2ccccc2)CCN(Cc2ccccc2)CC1` stands inactive: -0.68%; under `NN(c1ccccc1)C1CCN(CCc2ccccc2)CC1`, inactive: 0.01%.

For the compound `CC(C)(C)OC(=O)N1CCC(Nc2ccccc2)CC1`, the inhibition was inactive: -1.17%. Under `N/C(=N\O)c1c(N)no[n+]1[O-]` stands inactive: -1.14%. Under `CCOC(=O)N1CCC(Nc2ccc(C)cc2)CC1` stands inactive: -1.19%. The value for `COc1cccc(C(c2nnnn2C(C)(C)C)N2CCC(n3c(=O)[nH]c4ccccc43)CC2)c1OC` (stereo not drawn) was inactive: -0.95%; that for `CCCCn1nnnc1C(c1cccc(OC)c1OC)N1CCC(n2c(=O)[nH]c3ccccc32)CC1` (stereo not drawn) was inactive: -0.48%. For the compound `O=c1[nH]c2ccccc2n1C1CCN(C(c2cccs2)c2nnnn2C2CCCC2)CC1` (stereo not drawn), the inhibition was inactive: 0.09%. Under `O=C(OC1CN2CCC1CC2)C1c2ccccc2C=Cc2ccccc21` (stereo not drawn) stands inactive: 0.51%; under `O=C(NCC1(N2CCOCC2)CCCCC1)c1cc(Br)ccc1Cl`, inactive: -0.36%.

Regarding `COc1cc(C(=O)NCC2(N3CCOCC3)CCCCC2)cc(OC)c1C`, the inhibition was inactive: -0.17%. The value for `CCCCn1nnnc1C(c1ccccc1)N1CCC(n2c(=O)[nH]c3ccccc32)CC1` (stereo not drawn) was inactive: -0.38%.

For `O=c1[nH]c2ccccc2n1C1CCN(C(c2ccnc3ccccc23)c2nnnn2C2CCCC2)CC1` (stereo not drawn), the inhibition was inactive: -0.24%. The value for `COc1ccc(C(=O)NCC2(N3CCOCC3)CCCCC2)cc1OC` was inactive: -0.33%; that for `O=c1[nH]c2ccccc2n1C1CCN(C(c2cccs2)c2nnnn2C2CCCCC2)CC1` (stereo not drawn) was inactive: -0.28%. The value for `Cc1cc(N(CCCl)CCCl)ccc1C=O` was inactive: -0.09%. Under `CCCN1CCC(Nc2cc(OC)cc(OC)c2)CC1` stands inactive: -0.12%.

As for `O=c1[nH]c2ccccc2n1C1CCN(C(c2ccccc2)c2nnnn2C2CCCC2)CC1` (stereo not drawn), the inhibition was inactive: -0.37%. Regarding `c1ccc(CN2CCC(Nc3ccccc3)CC2)cc1`, the inhibition is inactive: -0.19%. Under `CN(C)C1(CNC(=O)c2cccc(C#N)c2)CCCCC1` stands inactive: -0.54%. Consider `CC(C)(C)n1nnnc1C(c1cccc2ccccc12)N1CCC(n2c(=O)[nH]c3ccccc32)CC1` (stereo not drawn), for which the inhibition is inactive: -0.53%. The value for `CC(C)(C)OC(=O)N1CCC(N(C(=O)c2ccccc2)c2ccc(Cl)cc2)CC1` was inactive: -1.26%; that for `N#Cc1ccc(C(=O)NCC2(N3CCCCC3)CCCCC2)cc1` was inactive: -0.41%. The value for `O=C(NCC1(N2CCCCC2)CCCCC1)c1cccc(C(F)(F)F)c1` was inactive: 0.77%; that for `CN1CCN(CCOC(=O)C(O)(c2ccccc2)c2ccccc2)CC1` was inactive: -0.26%. For the compound `CC(C)c1ccc(C(=O)NCC2(N3CCOCC3)CCCCC2)cc1`, the inhibition is inactive: -0.6%.

`COc1ccc(NC2CCN(C(=O)OC(C)(C)C)CC2)cc1`: the inhibition is inactive: 0.3%. In the case of `CCCCn1nnnc1C(c1cccc2ccccc12)N1CCC(n2c(=O)[nH]c3ccccc32)CC1` (stereo not drawn), the inhibition is inactive: 0.07%. The value for `COc1cc(C(=O)NCC2(N3CCCCC3)CCCCC2)ccc1OC(F)F` was inactive: -0.76%; that for `O=C(NCC1(N2CCOCC2)CCCCC1)c1cc(=O)[nH]c2ccccc12` was inactive: -0.77%. The value for `O=C(NCC1(N2CCCCC2)CCCCC1)c1ccc(OC(F)F)cc1` was inactive: 0.95%.

Turning to `CC(C)(C)n1nnnc1C(c1ccccc1OC(F)(F)F)N1CCC(n2c(=O)[nH]c3ccccc32)CC1` (stereo not drawn), the inhibition was inactive: -1.03%. As for `O=C(NCC1(N2CCCCC2)CCCCC1)c1cccc([N+](=O)[O-])c1`, the inhibition was inactive: 0.11%.

With `CSc1ccc(C(=O)NCC2(N3CCOCC3)CCCCC2)cc1`, the inhibition is inactive: -0.57%. For `O=c1[nH]c2ccccc2n1C1CCN(C(c2ccccc2OC(F)(F)F)c2nnnn2C2CCCC2)CC1` (stereo not drawn), the inhibition was inactive: -0.58%. The value for `N#CC1(Nc2ccccc2)CCN(CCc2ccccc2)CC1` was inactive: -0.1%; that for `CCN1CCC(Nc2ccc(Cl)cc2)CC1` was inactive: -0.19%. Under `CN1CCC(Nc2cccc(F)c2)CC1` stands inactive: -0.85%; under `O=C(NCC1(N2CCCCC2)CCCCC1)c1cncc(Br)c1`, inactive: -0.44%.

On to `CCCOc1ccc(C(=O)NCC2(N(C)C)CCCCC2)cc1OC`, for which the inhibition is inactive: -0.01%. The value for `Cc1ccc(C(=O)NCC2(N(C)C)CCCCC2)o1` was inactive: -0.08%; that for `COc1ccc(C(c2nnnn2C2CCCC2)N2CCC(n3c(=O)[nH]c4ccccc43)CC2)cc1` (stereo not drawn) was inactive: -0.07%. Under `CN(C)c1cccc(C(=O)NCC2(N3CCCCC3)CCCCC2)c1` stands inactive: -0.37%. For the compound `COc1ccc(CN(CCCl)CCCl)cc1Cl`, the inhibition is inactive: -0.41%.

In the case of `CCCCn1nnnc1C(c1ccccc1OC(F)(F)F)N1CCC(n2c(=O)[nH]c3ccccc32)CC1` (stereo not drawn), the inhibition is inactive: 0.05%. Under `CC(C)c1ccc(NC2CCN(C(=O)OC(C)(C)C)CC2)cc1` stands inactive: 0.19%; under `CCCCn1nnnc1C(c1ccnc2ccccc12)N1CCC(n2c(=O)[nH]c3ccccc32)CC1` (stereo not drawn), inactive: -0.72%. In the case of `CCC(c1nnnn1C(C)(C)C)N1CCC(n2c(=O)[nH]c3ccccc32)CC1` (stereo not drawn), the inhibition was inactive: 0.02%. With `O=C(NCC1(N2CCOCC2)CCCCC1)c1cc(F)c(F)cc1Cl`, the inhibition is inactive: -0.23%. In the case of `COc1cc(OC)c(C(=O)NCC2(N(C)C)CCCCC2)cc1OC`, the inhibition is inactive: -0.79%. `O=C(NCC1(N2CCOCC2)CCCCC1)c1cc2ccccc2o1`: the inhibition was inactive: -0.18%.

In the case of `Cc1cc(C)cc(N(C(=O)c2ccccc2)C2CCN(C(=O)OC(C)(C)C)CC2)c1`, the inhibition was inactive: -0.95%. Under `O=C(NCC1(N2CCCCC2)CCCCC1)c1ccc(Cl)nc1` stands inactive: 0.35%; under `O=c1[nH]c2ccccc2n1C1CCN(C(c2ccccc2OC(F)(F)F)c2nnnn2C2CCCCC2)CC1` (stereo not drawn), inactive: -0.19%; under `CCCCn1nnnc1C(c1ccc(OC)cc1)N1CCC(n2c(=O)[nH]c3ccccc32)CC1` (stereo not drawn), inactive: -1.16%. The value for `CCOC(=O)N1CCC(Nc2ccc(OC)cc2)CC1` was inactive: -0.6%; that for `COc1ccc(Cl)cc1C(=O)NCC1(N2CCOCC2)CCCCC1` was inactive: -0.17%; that for `O=C(NCC1(N2CCCCC2)CCCCC1)c1ccc(Cl)s1` was inactive: -0.15%. As to `N#CC1(Nc2ccccc2)CCN(Cc2ccccc2)CC1`, the inhibition is inactive: -0.01%. The value for `O=C(OC1CN2CCC1CC2)C1c2ccccc2Oc2ccccc21` (stereo not drawn) was inactive: 0.02%; that for `O=c1[nH]c2ccccc2n1C1CCN(C(c2cc3ccccc3o2)c2nnnn2C2CCCCC2)CC1` (stereo not drawn) was inactive: 0.13%. The value for `O=C(NCC1(N2CCCCC2)CCCCC1)c1cccs1` was inactive: -0.29%. Under `CCCCn1nnnc1C(CC)N1CCC(n2c(=O)[nH]c3ccccc32)CC1` (stereo not drawn) stands inactive: -0.31%; under `CCCCn1nnnc1C(c1cccs1)N1CCC(n2c(=O)[nH]c3ccccc32)CC1` (stereo not drawn), inactive: -1.18%; under `O=C(NCC1(N2CCCCC2)CCCCC1)c1ccc(=O)[nH]c1`, inactive: -0.15%. Turning to `CC(C)(C)OC(=O)N1CCC(N(C(=O)c2ccccc2)c2ccc(F)cc2)CC1`, the inhibition is inactive: -0.94%. Under `COc1ccc(C(=O)NCC2(N3CCCCC3)CCCCC2)c(OC)c1OC` stands inactive: -1.01%. Under `CCC(c1nnnn1C1CCCC1)N1CCC(n2c(=O)[nH]c3ccccc32)CC1` (stereo not drawn) stands inactive: 0.61%; under `COc1ccc(C(=O)NCC2(N3CCCCC3)CCCCC2)cc1`, inactive: -0.29%. Under `Cc1cccc(NC2(C#N)CCN(Cc3ccccc3)CC2)c1` stands inactive: -0.04%; under `CSc1ccccc1C(=O)NCC1(N2CCCCC2)CCCCC1`, inactive: -0.7%. As for `O=c1[nH]c2ccccc2n1C1CCN(C(c2ccccc2)c2nnnn2C2CCCCC2)CC1` (stereo not drawn), the inhibition was inactive: 0.14%. The value for `O=c1[nH]c2ccccc2n1C1CCN(C(c2cccc3ccccc23)c2nnnn2C2CCCC2)CC1` (stereo not drawn) was inactive: -0.27%.

For the compound `CCOC(=O)N1CCC(Nc2cccc(C)c2)CC1`, the inhibition was inactive: -0.03%. The value for `COc1cc(C(=O)NCC2(N(C)C)CCCCC2)ccc1OC(F)F` was inactive: -1.64%; that for `CCOc1ccc(C)cc1CN(CCCl)CCCl` was inactive: -0.2%. On to `O=C1CCN(Cc2ccccc2)CC1`, for which the inhibition was inactive: 1.8%. For `CC(C)(C)n1nnnc1C(c1ccccc1)N1CCC(n2c(=O)[nH]c3ccccc32)CC1` (stereo not drawn), the inhibition was inactive: -0.12%. Under `COc1ccc(NC2CCN(CCc3ccccc3)CC2)c(OC)c1` stands inactive: -1.01%. The value for `CCOC(=O)N1CCC(Nc2ccc(F)cc2)CC1` was inactive: -0.34%; that for `CCCCn1nnnc1C(c1cc2ccccc2o1)N1CCC(n2c(=O)[nH]c3ccccc32)CC1` (stereo not drawn) was inactive: -0.41%; that for `O=P1(N(CCCl)CCCl)SCCCS1` was inactive: -0.46%. Under `CCCCOc1ccc(C(=O)NCC2(N3CCOCC3)CCCCC2)cc1` stands inactive: -0.58%; under `O=C(NCC1(N2CCCCC2)CCCCC1)c1ccc(F)cc1`, inactive: 0.39%.

Usually inhibition stands for the drop in the measured response relative to a control, in per cent.
